Experimental data taken from article PMC11126104 (Toxins, 2024).

System: Caco-2/HT-29MTX monolayers

## aflatoxin B1 [AFB1]
  FA (calculated human fraction absorbed): 98.8%
